Anti-infective test results gathered from many reports (values: NIAID ChemDB through PubChem).

Common to all: whole-cell or culture tests; agent: HIV-1; method: p24; measure: EC50

ECn: concentration that inhibits the pathogen or its effect by n%. Blank or dashed fields: not listed here. Neighbouring rows are from separate reports.

| smiles | mutations | strain | cells | conditions | value |
|---|---|---|---|---|---|
| NC(=O)NO | - | IIIB | PBMC | - | ~50 µM |
| Cc1cn([C@H]2C[C@H](N=[N+]=[N-])[C@@H](CO)O2)c(=O)[nH]c1=O | - | 9451 CLADE C CLADE C | PBMC | - | 0.001 µM |
| Cc1cn([C@H]2C[C@H](N=[N+]=[N-])[C@@H](CO)O2)c(=O)[nH]c1=O | - | HXB2 | PBMC | - | <0.005 µg/mL |
| COc1c(C)c2c(c(O)c1C/C=C(\C)CCC(=O)O)C(=O)OC2 | - | NL4-3 | PBMC | - | ~10 µM |
| Cc1cn([C@H]2C[C@H](N=[N+]=[N-])[C@@H](CO)O2)c(=O)[nH]c1=O | - | BAL R5 | PBMC | - | 0.013 µM |
| CC(C)(C)NC(=O)[C@@H]1C[C@@H]2CCCC[C@@H]2CN1C[C@@H](O)[C@H](Cc1ccccc1)NC(=O)[C@H](CC(N)=O)NC(=O)c1ccc2ccccc2n1 | PR-L10F M46I I84V | NL4-3.C7 (PR L10F M46I I84V) | MT-4 | - | 0.006 µM |
| C[C@H](Cn1cnc2c(N)ncnc21)OCP(=O)(OCOC(=O)OC1CCCC1)OCOC(=O)OC1CCCC1 | - | - | MT-4 | - | >30 µM |
| CC1(C)Oc2ccc3ccc(=O)oc3c2[C@@H](OC(=O)C23CCC(C)(C(=O)O2)C3(C)C)[C@H]1OC(=O)C12CCC(C)(C(=O)O1)C2(C)C | - | - | Monocytes | 17 d | <0.000016 µM |
| CC(C)OC(=O)OCOP(=O)(CO[C@H](C)Cn1cnc2c(N)ncnc21)OCOC(=O)OC(C)C | - | - | MT-4 | - | 2.31 µM |
| O=c1c(O)c(-c2ccc(O)c(O)c2)oc2cc(O)cc(O)c12 | - | - | PBMC | - | <40 µM |
| CCN(C(=O)OCc1ccccc1)C1CCN(CCC(CN(C)S(=O)(=O)c2ccccc2)c2ccccc2)CC1 | - | YU-2 (M-tropic) | PBMC | - | <12.5 µM |
| Cc1cn([C@H]2C[C@H](N=[N+]=[N-])[C@@H](CO)O2)c(=O)[nH]c1=O | - | LAV | CEM | - | 0.15 µM |
| C=C1CN(S(=O)(=O)c2ccc(C)cc2)CCCN(Cc2ccccc2)CCCN(S(=O)(=O)c2ccc(C)cc2)C1 | - | NL4-3 | MT-4 | - | <3.2 µM |
| Cc1cn([C@H]2C[C@H](N=[N+]=[N-])[C@@H](CO)O2)c(=O)[nH]c1=O | - | KK-1 | PBMC | - | <0.015 µg/mL |
| Cc1ccc(-c2ccc3c(c2)C=C(C(=O)Nc2ccc(C[N+](C)(C)C4CCOCC4)cc2)CCC3)cc1 | - | JR-FL | PBMC | - | 0.01 µM |
| C[C@H](Cn1cnc2c(N)ncnc21)OCP(=O)(OCOC(=O)OC1CCCCC1)OCOC(=O)OC1CCCCC1 | - | - | MT-4 | - | 17.5 µM |
| O=c1[nH]cnc2c1ncn2[C@H]1CC[C@@H](CO)O1 | - | IIIRF | MOLT-4/8 + MOLT-4 | - | 13.8 µM |
| CC(=O)c1ccc(C)cc1NC(C(N)=O)c1c(Cl)cccc1Cl | - | clinical isolate A012D AZT-resistant | MT-4 | - | 0.023 µM |
| Cc1cn([C@H]2C[C@H](N=[N+]=[N-])[C@@H](CO)O2)c(=O)[nH]c1=O | - | EVK | MT-4 | - | <10 µM |
| CN(C(=O)OCc1ccccc1)C1CCN(CCC(CN(C)S(=O)(=O)c2ccccc2)c2ccccc2)CC1 | - | YU-2 (M-tropic) | PBMC | - | <12.5 µM |
| CCCN(C)C(=O)Oc1nsnc1-c1c(Cl)ccc(N)c1Cl | - | IIIB MKC-442-resistant | MT-4 | - | 0.765 µM |
| CC[C@H](C)[C@H](NC(=O)[C@H](C(C)C)[C@@H](O)[C@H](O)[C@H](CC1CCCCC1)NC(=O)[C@H](Cc1cnc[nH]1)NC(=O)COc1cccc2ccccc12)C(=O)NCc1ccccn1 | - | JR-CSF | PBMC | - | 0.15 µM |
| CC(C)Nc1cccnc1N1CCN(C(=O)c2ccc(-c3ccc(NS(C)(=O)=O)cc3)[nH]2)CC1 | - | IIIB | MT-4 | - | <0.8 µM |
| C[C@H](NC(=O)[C@H](CCCN=C(N)N)NC(=O)c1ccc(CNCc2ccccn2)cc1)c1cccc2ccccc12 | - | YU-1 R5 clinical isolate | PBMC | - | >10 µM |
| Nc1nc(=O)n([C@@H]2CS[C@H](CO)O2)cc1F | - | - | MT-4 | - | 27.7 µM |
| CN(C[C@@H](CCN1CCC2(CC1)CC(=O)c1ccccc12)c1cccc(Cl)c1)S(=O)(=O)c1ccccc1 | - | YU-2 (M-tropic) | PBMC | - | <1.5 µM |
| CCC(C1=C(O)CC(CC)(c2cccc(NS(=O)(=O)c3ccc(C#N)cn3)c2)OC1=O)c1cccc(NS(=O)(=O)c2ccc(C#N)cn2)c1 | - | IIIB | H9 | - | >3 µM |
| CSc1c(C)c(SC)n2ccncc12 | - | - | ACH-2(PMA+) + ACH2 | - | <15 µM |
| CC1(C)Oc2ccc3ccc(=O)oc3c2[C@H](OC(=O)c2cccc(Cl)c2)[C@H]1OC1CCCCO1 | - | IIIB | H9 | - | >41 µM |
| C[C@@H](Cn1cnc2c(N)ncnc21)OCP(=O)(OCOC(=O)OC1CCCCC1)OCOC(=O)OC1CCCCC1.O=C(O)/C=C/C(=O)O | - | IIIB | MT-4 | - | 17.5 µM |
| CC1=C(CCC(=O)O)c2cc3nc(cc4[nH]c(cc5[nH]c(cc1n2)c(C)c5C(COC(=O)c1ccc(N(C)C)cc1)OC(=O)c1ccc(N(C)C)cc1)c(C)c4C(COC(=O)c1ccc(N(C)C)cc1)OC(=O)c1ccc(N(C)C)cc1)C(C)=C3CCC(=O)O | - | IIIB | MT-2 | - | 2.75 ± 0.22 µM |
| CN=C(NC#N)NCCSCc1nc[nH]c1C | - | - | MT-4 | - | 0.0268 µM |
| CC(C)(C)C(=O)SCCOP(=O)(OCCSC(=O)C(C)(C)C)OC[C@H]1O[C@@H](n2ccc(N)nc2=O)CS1 | - | IIIRF | MOLT-4/8 + MOLT-4 | - | 0.22 µM |
| CC(C)(C)NC(=O)[C@@H]1CN(Cc2cccnc2)CCN1C[C@@H](O)C[C@@H](Cc1ccccc1)C(=O)N[C@H]1c2ccccc2C[C@H]1O | - | NL4-3 WT | MT-2 | - | 0.021 µM |
| CC1=C(CCC(=O)O)c2cc3nc(cc4[nH]c(cc5[nH]c(cc1n2)c(C)c5C(O)CO)c(C)c4C(O)CO)C(C)=C3CCC(=O)O | - | IIIB | MT-2 | - | 6.57 ± 0.28 µM |
| Nc1nc(NC2CC2)c2ncn([C@H]3C=C[C@@H](CO)C3)c2n1 | - | Clinical isolates | PBMC | - | 0.393 µM |
| C=CCOC(=O)OCOP(=O)(CO[C@H](C)Cn1cnc2c(N)ncnc21)OCOC(=O)OCC=C | - | - | MT-4 | - | 1.61 µM |
| CC(=O)O[C@@H]1[C@H](OC(=O)CC(C)C)c2c(ccc3ccc(=O)oc23)OC1(C)C | - | - | Monocytes | 12 d | <4 µg/mL |
| Nc1ccn([C@@H]2CO[C@H](CO)S2)c(=O)n1 | Saquinavir-resistant (PR G48V L90M) | RF | C8166 | - | 6.5 µM |
| Cc1cn([C@H]2C[C@H](N=[N+]=[N-])[C@@H](CO)O2)c(=O)[nH]c1=O | - | IIIRF | MOLT-4/8 + MOLT-4 | - | 0.013 µM |
| Nc1ncnc2c1ncn2CCOCP(=O)(OCOC(=O)OC1CCCC1)OCOC(=O)OC1CCCC1.O=C(O)/C=C/C(=O)O | - | IIIB | MT-4 | - | 3.51 µM |
| CC(C)[C@H](NC(=O)N(C)Cc1ccccn1)C(=O)N[C@@H](Cc1ccccc1)[C@H](O)[C@H](O)[C@H](Cc1ccccc1)NC(=O)[C@@H](NC(=O)N(C)Cc1ccccn1)C(C)C | - | LAI | H9 | - | 0.1 µM |
| CC(C)OC(=O)OCOP(=O)(CO[C@H](C)Cn1cnc2c(N)ncnc21)OCOC(=O)OC(C)C.O=C(O)/C=C/C(=O)O | - | IIIB | MT-4 | - | 2.31 µM |
| O=C1CN=C(c2ccc[nH]2)c2cc(Cl)ccc2N1 | - | IIIB/LAI | HUT-78/IIIB/LAI + HUT 78 | - | >1 µM |